Values quoted from earlier work in US5955100A, “Prodrugs their preparation and use as pharmaceuticals” (priority 1992, dated 1999).

Tested on: tumors with high β-glucuronidase levels
Conditions: tumor patients; cited from earlier work

Q: Which “therapeutic results in clinical trial” value does the source give for `ClCCN(CCCl)c1ccccc1` here?
A: rather disappointing
